# Single amino acid changes in Zika NS2B-NS3 and viral growth

From the data files of Ni et al. 2025, doi:10.1038/s41467-025-63602-z.

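Libraries of single mutants were passaged as virus pools on Huh-7.5 cells. The effect is the change in frequency of a mutant, normalised to wild type, as a mean of three replicate libraries (two for positions 207-308). The aim was to find sites where inhibitor-binding pockets cannot change.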

Protein: NS2B and the protease part of NS3 of Zika virus strain MR766. Positions count along the chain below; NS2B spans 2-131 and NS3 starts at 132.
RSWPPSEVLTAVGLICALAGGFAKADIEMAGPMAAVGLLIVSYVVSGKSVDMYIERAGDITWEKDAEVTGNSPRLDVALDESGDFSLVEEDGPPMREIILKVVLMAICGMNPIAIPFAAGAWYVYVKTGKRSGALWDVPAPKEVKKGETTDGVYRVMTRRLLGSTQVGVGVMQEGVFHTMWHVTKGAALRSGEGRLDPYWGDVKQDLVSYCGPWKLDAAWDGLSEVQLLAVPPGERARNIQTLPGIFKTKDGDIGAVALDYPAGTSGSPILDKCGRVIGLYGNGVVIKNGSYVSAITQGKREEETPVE

Values are log2 effects on growth: 0 is wild type, lower means poorer growth.
Substitutions are written as wild-type residue, site number, new residue.
All changes here are to leucine.
The region was split into three libraries (1-103, 104-206, 207-308).
Position 1 still belongs to NS2A. In the paper, -1 or higher counts as tolerated.
Values above 0 are not proof of better growth: six high scorers were tested one by one, five grew less well than wild type and one about as well.

* D206L: -8.19
* V208L: -1.58
* S209L: -7.15
* Y210L: -8.04
* C211L: -1.62
* G212L: -7.91
* P213L: -2.91
* W214L: -8.72
* K215L: -6.58
* D217L: -6.68
* A218L: -7.79
* A219L: 1.37
* W220L: -8.00
* D221L: -6.58
* G222L: -4.51
* S224L: -7.16
* E225L: -7.51
* V226L: -6.81
* Q227L: -7.91
* A230L: -5.28
* V231L: 1.43
* P232L: -1.00
* P233L: -5.20
* G234L: -6.22
* E235L: -3.72
* R236L: 1.28
* A237L: -0.53
* R238L: 2.03
* N239L: -7.06
* I240L: -2.76
* Q241L: -7.83
* T242L: -6.93
* P244L: -5.41
* G245L: -6.93
* I246L: -0.11
* F247L: -7.47
* K248L: -3.94
* T249L: 1.32
* K250L: -6.68
* D251L: -7.00
* G252L: -6.02
* D253L: -6.73
* I254L: -1.73
* G255L: -7.99
* A256L: -7.30
* V257L: -6.39
* A258L: -6.70
* D260L: -5.93
* Y261L: -0.15
* P262L: -4.88
* A263L: -6.02

Extract of 3 entries:

{"change": "G234L", "log2 growth effect": -6.22}
{"change": "P244L", "log2 growth effect": -5.41}
{"change": "K215L", "log2 growth effect": -6.58}